Test results published in patent publication US20060193771A1.

Columns and labels:
[1] = molecular target: human CD30, native, expressed on cells (human); assay: cell-based or functional assay
[2] = molecular target: recombinant soluble CD30 (sCD30) produced in E. coli (human); assay: affinity of the dsFv-PE38 immunotoxin; taken as BIAcore on sCD30
[3] = molecular target: recombinant soluble CD30 (sCD30) produced in E. coli (human); assay: affinity of the dsFv-PE38 immunotoxin, second day; taken as BIAcore on sCD30

Substance	Cytotoxicity (IC50, ng/mL), A431/CD30 cells [1] [ng/mL]	Cytotoxicity (IC50, ng/mL), Karpas 299 cells [1] [ng/mL]	Cytotoxicity (IC50, ng/mL), SUDHL1 cells [1] [ng/mL]	Cytotoxicity (IC50, ng/mL), SUDHL1 cells, second day [1] [ng/mL]	Cytotoxicity of dsFv immunotoxin (IC50, ng/ml), A431/CD30 cells [1] [ng/mL]	Kd [2] [µM]	Kd [3] [µM]
T13 dsFv-PE38 immunotoxin (from UniProt P11439 278-389)	0.7	18	27	3	0.7	0.024	–
T104 dsFv-PE38 immunotoxin (from UniProt P11439 278-389)	14	230	–	–	–	–	0.07
T105 dsFv-PE38 immunotoxin (from UniProt P11439 278-389)	0.6	17	8	2.8	0.6	0.012	–
T405 dsFv-PE38 immunotoxin (from UniProt P11439 278-389)	200	> 100	> 100	–	–	0.31	–
T408 dsFv-PE38 immunotoxin (from UniProt P11439 278-389)	80	340	–	–	–	–	0.33
T420 dsFv-PE38 immunotoxin (from UniProt P11439 278-389)	1.5	53	18	–	1.5	0.058	–
T427 dsFv-PE38 immunotoxin (from UniProt P11439 278-389)	2.1	41	13	–	–	0.036	–
